The source of these data is publication PMC5693944.

For at least one entry, the source does not settle the construct or the ends of the probe. At least one verdict rests on a figure or table, not on a statement of the authors.

The target of the data set is MucR (Brucella abortus 2308) (UniProt Q2YMR3). The data set is described as follows: EMSA. The following applies: no netropsin; recombinant protein; residues 1-142. (A gel shift assay detects complexes by their altered migration in electrophoresis.)

For “GGCGCCGAAATAACGGAGCG (double strand) [Core2]”, the binding result is “binds”.
